Results from US20220380347A1.
pEC50, pIC50: −log10 of the molar value.

The chains behind the UniProt entries cited, without tags or fusion partners. Residues count along the entry.
UniProt P0C6X1, 2966-3267 limits assumed: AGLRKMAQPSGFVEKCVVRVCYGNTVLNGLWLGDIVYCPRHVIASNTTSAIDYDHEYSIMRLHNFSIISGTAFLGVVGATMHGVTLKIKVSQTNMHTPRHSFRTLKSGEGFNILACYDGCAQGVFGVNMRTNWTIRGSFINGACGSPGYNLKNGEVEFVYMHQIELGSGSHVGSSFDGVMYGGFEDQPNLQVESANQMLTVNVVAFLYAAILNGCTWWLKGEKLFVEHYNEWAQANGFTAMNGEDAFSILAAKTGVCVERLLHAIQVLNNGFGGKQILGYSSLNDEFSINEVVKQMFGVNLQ

What follows are compounds tested against 229E Mpro (Human coronavirus 229E, UniProt P0C6X1) (assay: 229E Mpro enzymatic assay). Details: read-out: 229E Mpro EC50.
With `CC1(C)CN[C@@H](C(=O)N(c2ccc(C(C)(C)C)cc2)C(C(=O)NC2CCCCC2)c2cccnc2)CO1` (single isomer, unassigned) the pEC50 was < 4.52. In the case of `CC(C)(C)c1ccc(N(C(=O)[C@H]2C[C@@H](O)CN2C#N)C(C(=O)NC2CCCCC2)c2cncc(F)c2)cc1` (single isomer, unassigned), the pEC50 was > 5.70. With `C[C@H](C(=O)N(c1ccc(C(C)(C)C)cc1)C(C(=O)NC1CCCCC1)c1cccnc1)N(C)C#N` (single isomer, unassigned) the pEC50 was < 4.52. With `COc1ccncc1C(C(=O)NC1CCC(F)(F)CC1)N(C(=O)[C@H]1C[C@@](C)(O)CN1C#N)c1ccc(S(F)(F)(F)(F)F)cc1` (single isomer, unassigned) the pEC50 was > 5.70. In the case of `CC(C)(C)c1ccc(N(C(=O)[C@@]2(C)CCCN2)C(C(=O)NC2CCCCC2)c2cccnc2)cc1` (single isomer, unassigned), the pEC50 was < 4.52. In the case of `CC(C)(C)c1ccc(N(C(=O)[C@H]2Cc3ccccc3CN2)C(C(=O)NC2CCCCC2)c2cccnc2)cc1` (single isomer, unassigned), the pEC50 was < 4.52. `CC(C)(C)c1ccc(N(C(=O)[C@H]2COCCN2)C(C(=O)NC2CCCCC2)c2cccnc2)cc1` (single isomer, unassigned) was tested, and the pEC50 was < 4.52. `C[C@@]1(O)C[C@H](C(=O)N(c2ccc(S(F)(F)(F)(F)F)cc2)C(C(=O)NC2CCC(F)(F)CC2)c2cncnc2)N(C#N)C1` (single isomer, unassigned) was tested, and the pEC50 was > 5.70. In the case of `CC(C)(C)c1ccc(N(C(=O)[C@H]2C[C@H](O)CN2)C(C(=O)NC2CCCCC2)c2cccnc2)cc1` (single isomer, unassigned), the pEC50 was < 4.52. With `CC(C)(C)c1ccc(N(C(=O)[C@H]2C[C@@H](O)CN2)C(C(=O)NC2CCCCC2)c2cccnc2)cc1` (single isomer, unassigned) the pEC50 was < 4.52.

Each compound was assayed against COVID-19 (nCoV-2019, SARS-CoV2) Mpro (Severe acute respiratory syndrome coronavirus 2, UniProt P0DTD1) (assay: COVID-19). Details: read-out: COVID-19 Mpro IC50; 25 nM Mpro, 25 μM substrate.
Assay type: biochemical
In the case of `CC1(C)CN[C@@H](C(=O)N(c2ccc(C(C)(C)C)cc2)C(C(=O)NC2CCCCC2)c2cccnc2)CO1` (single isomer, unassigned), the pIC50 was < 4.52. `CC(C)(C)c1ccc(N(C(=O)[C@H]2C[C@@H](O)CN2C#N)C(C(=O)NC2CCCCC2)c2cncc(F)c2)cc1` (single isomer, unassigned) was tested, and the pIC50 was > 5.70. `C[C@H](C(=O)N(c1ccc(C(C)(C)C)cc1)C(C(=O)NC1CCCCC1)c1cccnc1)N(C)C#N` (single isomer, unassigned) was tested, and the pIC50 was < 4.52. In the case of `COc1ccncc1C(C(=O)NC1CCC(F)(F)CC1)N(C(=O)[C@H]1C[C@@](C)(O)CN1C#N)c1ccc(S(F)(F)(F)(F)F)cc1` (single isomer, unassigned), the pIC50 was > 5.70. In the case of `CC(C)(C)c1ccc(N(C(=O)[C@@]2(C)CCCN2)C(C(=O)NC2CCCCC2)c2cccnc2)cc1` (single isomer, unassigned), the pIC50 was < 4.52. With `CC(C)(C)c1ccc(N(C(=O)[C@H]2Cc3ccccc3CN2)C(C(=O)NC2CCCCC2)c2cccnc2)cc1` (single isomer, unassigned) the pIC50 was < 4.52. `CC(C)(C)c1ccc(N(C(=O)[C@H]2COCCN2)C(C(=O)NC2CCCCC2)c2cccnc2)cc1` (single isomer, unassigned) was tested, and the pIC50 was < 4.52. In the case of `C[C@@]1(O)C[C@H](C(=O)N(c2ccc(S(F)(F)(F)(F)F)cc2)C(C(=O)NC2CCC(F)(F)CC2)c2cncnc2)N(C#N)C1` (single isomer, unassigned), the pIC50 was > 5.70. In the case of `CC(C)(C)c1ccc(N(C(=O)[C@H]2C[C@H](O)CN2)C(C(=O)NC2CCCCC2)c2cccnc2)cc1` (single isomer, unassigned), the pIC50 was < 4.52. For `CC(C)(C)c1ccc(N(C(=O)[C@H]2C[C@@H](O)CN2)C(C(=O)NC2CCCCC2)c2cccnc2)cc1` (single isomer, unassigned), the pIC50 was < 4.52.

Each compound was assayed on HCoV 229E (assay: HCoV 229E cytopathic effect). Details: read-out: 229E CPE EC50; protection of virus-induced CPE.
Assay type: cell-based, human coronavirus (HCov) 229E
`CC(C)(C)c1ccc(N(C(=O)[C@H]2C[C@@H](O)CN2C#N)C(C(=O)NC2CCCCC2)c2cncc(F)c2)cc1` (single isomer, unassigned) was tested, and the pEC50 was > 5.70.

What follows are compounds tested on HCov OC43 (assay: HCoV OC43 cytopathic effect). Details: read-out: OC43 IC50 (uM) MEDIAN.
With `C[C@H](C(=O)N(c1ccc(C(C)(C)C)cc1)C(C(=O)NC1CCCCC1)c1cccnc1)N(C)C#N` (single isomer, unassigned) the IC50 was > 30 µM. For `COc1ccncc1C(C(=O)NC1CCC(F)(F)CC1)N(C(=O)[C@H]1C[C@@](C)(O)CN1C#N)c1ccc(S(F)(F)(F)(F)F)cc1` (single isomer, unassigned), the IC50 was < 2 µM. `CC(C)(C)c1ccc(N(C(=O)[C@H]2Cc3ccccc3CN2)C(C(=O)NC2CCCCC2)c2cccnc2)cc1` (single isomer, unassigned) was tested, and the IC50 was > 30 µM. `C[C@@]1(O)C[C@H](C(=O)N(c2ccc(S(F)(F)(F)(F)F)cc2)C(C(=O)NC2CCC(F)(F)CC2)c2cncnc2)N(C#N)C1` (single isomer, unassigned) was tested, and the IC50 was < 2 µM.
